Experimental data taken from publication PMC10492761, “Identification of sodium channel toxins from marine cone snails of the subgenera Textilia and Afonsoconus” (2023).
pIC50: −log10 of the molar value.

The chains behind the UniProt entries cited, without tags or fusion partners.
UniProt Q15858, whole entry, looked up: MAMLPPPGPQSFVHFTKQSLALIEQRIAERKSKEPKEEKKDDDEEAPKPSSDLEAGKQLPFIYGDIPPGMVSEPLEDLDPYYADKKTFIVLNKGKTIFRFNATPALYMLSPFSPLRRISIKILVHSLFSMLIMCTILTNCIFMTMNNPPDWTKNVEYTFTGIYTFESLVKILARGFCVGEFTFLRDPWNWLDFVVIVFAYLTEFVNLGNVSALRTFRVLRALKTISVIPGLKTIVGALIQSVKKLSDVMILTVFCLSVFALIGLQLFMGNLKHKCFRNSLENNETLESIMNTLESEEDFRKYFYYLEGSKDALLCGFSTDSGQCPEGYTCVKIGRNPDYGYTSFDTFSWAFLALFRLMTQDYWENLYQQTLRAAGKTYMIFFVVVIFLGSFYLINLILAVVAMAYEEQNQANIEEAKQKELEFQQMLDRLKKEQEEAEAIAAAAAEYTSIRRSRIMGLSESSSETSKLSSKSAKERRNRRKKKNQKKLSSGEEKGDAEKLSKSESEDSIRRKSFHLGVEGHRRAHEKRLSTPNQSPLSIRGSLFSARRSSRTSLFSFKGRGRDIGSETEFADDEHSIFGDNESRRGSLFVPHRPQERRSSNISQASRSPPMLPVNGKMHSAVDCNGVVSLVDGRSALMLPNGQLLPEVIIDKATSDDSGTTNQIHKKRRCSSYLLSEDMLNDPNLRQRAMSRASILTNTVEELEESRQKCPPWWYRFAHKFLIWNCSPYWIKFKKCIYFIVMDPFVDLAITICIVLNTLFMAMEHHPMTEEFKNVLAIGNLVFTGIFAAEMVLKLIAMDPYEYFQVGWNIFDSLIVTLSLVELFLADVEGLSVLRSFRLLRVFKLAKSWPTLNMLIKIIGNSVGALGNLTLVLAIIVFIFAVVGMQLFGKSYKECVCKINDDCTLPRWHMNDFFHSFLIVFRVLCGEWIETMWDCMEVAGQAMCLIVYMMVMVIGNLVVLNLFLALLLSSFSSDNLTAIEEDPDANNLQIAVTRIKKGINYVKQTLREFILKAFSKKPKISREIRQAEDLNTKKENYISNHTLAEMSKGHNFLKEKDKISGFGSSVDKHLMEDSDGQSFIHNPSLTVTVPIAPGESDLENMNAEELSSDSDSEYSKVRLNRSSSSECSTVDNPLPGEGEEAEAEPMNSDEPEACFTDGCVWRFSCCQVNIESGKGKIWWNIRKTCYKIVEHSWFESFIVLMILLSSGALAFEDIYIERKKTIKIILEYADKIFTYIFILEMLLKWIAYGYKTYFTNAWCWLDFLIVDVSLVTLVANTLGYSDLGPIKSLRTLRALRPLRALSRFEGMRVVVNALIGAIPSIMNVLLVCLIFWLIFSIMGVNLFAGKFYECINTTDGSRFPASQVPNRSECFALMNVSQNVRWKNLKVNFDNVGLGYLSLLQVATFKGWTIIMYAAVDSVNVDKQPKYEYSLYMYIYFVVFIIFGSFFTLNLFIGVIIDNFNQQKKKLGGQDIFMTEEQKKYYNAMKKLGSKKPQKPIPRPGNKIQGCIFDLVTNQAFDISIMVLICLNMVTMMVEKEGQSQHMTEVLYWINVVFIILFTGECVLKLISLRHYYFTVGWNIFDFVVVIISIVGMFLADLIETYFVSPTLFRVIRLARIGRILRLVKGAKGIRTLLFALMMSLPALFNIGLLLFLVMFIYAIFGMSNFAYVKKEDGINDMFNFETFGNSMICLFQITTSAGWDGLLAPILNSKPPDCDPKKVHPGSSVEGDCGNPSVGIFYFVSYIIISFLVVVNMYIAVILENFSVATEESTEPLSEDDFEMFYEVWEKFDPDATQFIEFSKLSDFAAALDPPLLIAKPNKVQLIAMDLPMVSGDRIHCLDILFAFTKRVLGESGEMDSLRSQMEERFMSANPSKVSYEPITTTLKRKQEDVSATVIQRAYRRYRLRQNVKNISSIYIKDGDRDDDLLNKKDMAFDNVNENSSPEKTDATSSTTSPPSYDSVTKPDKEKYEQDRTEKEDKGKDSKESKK
UniProt Q9NY46, whole entry, looked up: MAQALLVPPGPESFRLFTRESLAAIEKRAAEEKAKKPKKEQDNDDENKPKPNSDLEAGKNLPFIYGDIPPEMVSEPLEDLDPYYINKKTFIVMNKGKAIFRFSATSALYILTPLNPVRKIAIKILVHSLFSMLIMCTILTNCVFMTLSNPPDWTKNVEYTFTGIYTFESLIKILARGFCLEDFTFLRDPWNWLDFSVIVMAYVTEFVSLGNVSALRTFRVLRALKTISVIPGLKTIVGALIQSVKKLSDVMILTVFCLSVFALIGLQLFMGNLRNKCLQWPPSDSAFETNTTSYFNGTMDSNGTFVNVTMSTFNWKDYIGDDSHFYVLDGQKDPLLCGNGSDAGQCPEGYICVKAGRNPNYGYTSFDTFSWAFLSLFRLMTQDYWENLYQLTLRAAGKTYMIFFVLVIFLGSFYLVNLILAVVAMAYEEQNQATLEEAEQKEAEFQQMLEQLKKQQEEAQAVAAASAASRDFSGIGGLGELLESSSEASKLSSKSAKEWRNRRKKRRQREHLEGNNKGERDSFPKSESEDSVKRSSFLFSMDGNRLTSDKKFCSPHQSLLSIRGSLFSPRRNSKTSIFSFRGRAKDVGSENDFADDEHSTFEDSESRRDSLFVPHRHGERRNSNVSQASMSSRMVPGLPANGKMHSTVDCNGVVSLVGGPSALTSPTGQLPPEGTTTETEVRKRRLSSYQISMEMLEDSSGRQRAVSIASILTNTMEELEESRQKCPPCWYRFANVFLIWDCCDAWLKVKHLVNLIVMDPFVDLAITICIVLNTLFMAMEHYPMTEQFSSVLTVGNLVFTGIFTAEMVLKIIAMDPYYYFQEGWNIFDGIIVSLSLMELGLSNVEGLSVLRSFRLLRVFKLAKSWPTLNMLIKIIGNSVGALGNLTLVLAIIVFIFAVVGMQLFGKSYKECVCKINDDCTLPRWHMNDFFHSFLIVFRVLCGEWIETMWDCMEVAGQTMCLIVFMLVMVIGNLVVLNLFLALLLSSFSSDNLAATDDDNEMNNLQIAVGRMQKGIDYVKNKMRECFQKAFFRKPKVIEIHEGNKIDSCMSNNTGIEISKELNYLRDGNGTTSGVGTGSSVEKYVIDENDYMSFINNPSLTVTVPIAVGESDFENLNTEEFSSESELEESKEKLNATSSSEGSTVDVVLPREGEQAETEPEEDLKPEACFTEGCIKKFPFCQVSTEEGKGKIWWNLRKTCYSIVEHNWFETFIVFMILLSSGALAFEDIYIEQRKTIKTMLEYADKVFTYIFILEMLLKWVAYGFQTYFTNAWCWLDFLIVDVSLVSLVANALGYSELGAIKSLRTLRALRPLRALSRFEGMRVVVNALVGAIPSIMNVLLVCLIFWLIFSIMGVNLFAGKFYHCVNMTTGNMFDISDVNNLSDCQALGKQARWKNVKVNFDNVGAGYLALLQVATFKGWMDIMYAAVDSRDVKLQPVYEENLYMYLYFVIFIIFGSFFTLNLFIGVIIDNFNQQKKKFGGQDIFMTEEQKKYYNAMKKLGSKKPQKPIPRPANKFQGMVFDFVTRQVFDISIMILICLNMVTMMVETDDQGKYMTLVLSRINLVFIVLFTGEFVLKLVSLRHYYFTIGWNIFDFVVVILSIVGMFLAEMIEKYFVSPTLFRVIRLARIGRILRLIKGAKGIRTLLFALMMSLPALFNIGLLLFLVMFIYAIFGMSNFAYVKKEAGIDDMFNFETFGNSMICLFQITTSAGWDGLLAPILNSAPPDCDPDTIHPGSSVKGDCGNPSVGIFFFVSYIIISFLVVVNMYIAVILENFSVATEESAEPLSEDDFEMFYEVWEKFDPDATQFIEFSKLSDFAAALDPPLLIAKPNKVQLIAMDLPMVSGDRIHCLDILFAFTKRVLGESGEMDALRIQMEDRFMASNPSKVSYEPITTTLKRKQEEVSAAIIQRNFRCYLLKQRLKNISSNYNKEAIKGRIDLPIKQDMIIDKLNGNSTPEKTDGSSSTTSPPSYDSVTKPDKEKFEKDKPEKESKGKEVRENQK
UniProt Q9UQD0, whole entry, looked up: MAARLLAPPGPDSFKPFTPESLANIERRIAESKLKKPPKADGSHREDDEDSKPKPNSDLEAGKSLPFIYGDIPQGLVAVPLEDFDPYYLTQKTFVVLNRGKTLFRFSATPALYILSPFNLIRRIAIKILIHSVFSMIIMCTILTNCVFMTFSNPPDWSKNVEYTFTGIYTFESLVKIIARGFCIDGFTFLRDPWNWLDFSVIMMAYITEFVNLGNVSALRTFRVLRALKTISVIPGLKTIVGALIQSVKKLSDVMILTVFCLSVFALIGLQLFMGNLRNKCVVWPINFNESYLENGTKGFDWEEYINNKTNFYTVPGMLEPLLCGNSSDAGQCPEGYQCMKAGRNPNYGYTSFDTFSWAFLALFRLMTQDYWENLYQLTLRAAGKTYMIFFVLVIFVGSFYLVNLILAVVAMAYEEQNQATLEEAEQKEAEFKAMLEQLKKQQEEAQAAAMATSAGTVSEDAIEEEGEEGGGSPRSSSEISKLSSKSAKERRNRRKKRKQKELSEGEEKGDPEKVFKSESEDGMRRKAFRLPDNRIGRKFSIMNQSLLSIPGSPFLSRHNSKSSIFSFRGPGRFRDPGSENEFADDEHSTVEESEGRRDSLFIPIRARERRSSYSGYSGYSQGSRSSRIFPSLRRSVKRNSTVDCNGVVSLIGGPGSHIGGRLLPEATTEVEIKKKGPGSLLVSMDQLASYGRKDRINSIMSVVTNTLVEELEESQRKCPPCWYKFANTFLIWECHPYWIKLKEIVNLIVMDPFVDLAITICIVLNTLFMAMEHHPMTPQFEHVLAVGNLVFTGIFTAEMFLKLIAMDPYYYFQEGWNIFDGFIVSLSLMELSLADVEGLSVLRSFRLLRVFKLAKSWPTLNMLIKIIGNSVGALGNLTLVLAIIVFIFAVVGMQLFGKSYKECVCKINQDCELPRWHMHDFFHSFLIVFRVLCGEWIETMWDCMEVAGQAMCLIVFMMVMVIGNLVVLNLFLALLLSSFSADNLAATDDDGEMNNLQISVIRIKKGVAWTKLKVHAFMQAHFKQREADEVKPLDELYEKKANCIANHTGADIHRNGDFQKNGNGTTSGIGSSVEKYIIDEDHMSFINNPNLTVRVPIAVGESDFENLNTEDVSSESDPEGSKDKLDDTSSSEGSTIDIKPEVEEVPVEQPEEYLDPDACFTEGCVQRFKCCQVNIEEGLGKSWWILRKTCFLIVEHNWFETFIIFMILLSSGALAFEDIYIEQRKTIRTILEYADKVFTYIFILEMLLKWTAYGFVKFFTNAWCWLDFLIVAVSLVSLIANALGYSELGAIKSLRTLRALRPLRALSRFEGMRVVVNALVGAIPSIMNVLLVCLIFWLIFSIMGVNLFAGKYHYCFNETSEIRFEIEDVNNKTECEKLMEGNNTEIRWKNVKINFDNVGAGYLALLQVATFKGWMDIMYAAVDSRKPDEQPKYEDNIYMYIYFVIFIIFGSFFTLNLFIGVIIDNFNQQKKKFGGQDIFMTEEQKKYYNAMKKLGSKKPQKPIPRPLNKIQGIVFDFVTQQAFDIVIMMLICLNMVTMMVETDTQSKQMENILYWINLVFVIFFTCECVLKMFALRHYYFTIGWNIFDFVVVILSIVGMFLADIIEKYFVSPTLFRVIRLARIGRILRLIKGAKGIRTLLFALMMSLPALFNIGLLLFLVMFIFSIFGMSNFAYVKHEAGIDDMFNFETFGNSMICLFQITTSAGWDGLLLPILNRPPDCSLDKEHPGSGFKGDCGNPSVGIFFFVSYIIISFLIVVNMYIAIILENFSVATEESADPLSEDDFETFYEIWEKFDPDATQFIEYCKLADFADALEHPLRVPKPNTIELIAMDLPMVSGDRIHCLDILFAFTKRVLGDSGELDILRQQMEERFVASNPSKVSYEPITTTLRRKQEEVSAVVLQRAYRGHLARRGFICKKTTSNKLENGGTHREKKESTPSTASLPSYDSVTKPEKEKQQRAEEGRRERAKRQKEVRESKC

Experiments:
[1] = biological target: human NaV1.7 (Homo sapiens, UniProt Q15858); assay: Automated whole-cell patch-clamp, hNaV1.7; conditions: tested up to 10 µM
[2] = biological target: human NaV1.3 (Homo sapiens, UniProt Q9NY46); assay: Automated whole-cell patch-clamp, hNaV1.3; conditions: for pIC50: read-out: Potency (IC50) at NaV1.3, HEK293 cells, hNaV1.3 α + β1, QPatch16 II whole-cell patch-clamp, holding −90 mV, 50-ms pulse to −20 mV, 0.05 Hz, 5-min incubation per concentration, mean ± SEM
[3] = biological target: human NaV1.6 (Homo sapiens, UniProt Q9UQD0); assay: Automated whole-cell patch-clamp, hNaV1.6; conditions: read-out: Potency (IC50) at NaV1.6; HEK293 cells, hNaV1.6 α + β1; QPatch16 II whole-cell patch-clamp; holding −90 mV, 50-ms pulse to −20 mV, 0.05 Hz; 5-min incubation per concentration; mean ± SEM
[4] = test system: human NaV1.1–NaV1.8; assay: Selectivity across human NaV channel subtypes (patch-clamp panel); conditions: from IC50 values

Compound	Activity at hNaV1.7, in words [1]	pIC50 [2]	pIC50 [3]	Selectivity of hNaV1.2 over hNaV1.1 and hNaV1.4 [4]	Activity at hNaV1.3, summary in words [2]
CSCC[C@@H]1NC(=O)[C@H](CCC(N)=O)NC(=O)CNC(=O)[C@H](CC(N)=O)NC(=O)[C@@H]2CCCN2C(=O)[C@H](CCCCN)NC(=O)[C@@H]2CCCN2C(=O)[C@H](CCCNC(=N)N)NC(=O)[C@@H]2CSSC[C@@H]3NC(=O)[C@H](CCCNC(=N)N)NC(=O)[C@H](CO)NC(=O)[C@H](CC(N)=O)NC(=O)[C@H](CCCCN)NC(=O)[C@H](CCC(=O)O)NC(=O)[C@H](CSSC[C@H](NC(=O)[C@H](Cc4ccc(O)cc4)NC(=O)[C@H](CC(C)C)NC(=O)CNC(=O)[C@@H](N)C(C)C)C(=O)N2)NC(=O)[C@H](Cc2c[nH]c4ccccc24)NC(=O)[C@H](CCCNC(=N)N)NC(=O)[C@H](CC(=O)O)NC(=O)[C@H](CSSC[C@@H](C(N)=O)NC3=O)NC(=O)[C@H](CCSC)NC1=O	no effect				
CC(C)[C@H](N)C(=O)NCC(=O)N[C@@H](CCC(=O)O)C(=O)N[C@@H](CCCNC(=N)N)C(=O)N[C@H]1CSSC[C@@H]2NC(=O)[C@H](Cc3c[nH]c4ccccc34)NC(=O)[C@H](CCCNC(=N)N)NC(=O)CNC(=O)[C@@H]3CSSC[C@@H](C(N)=O)NC(=O)[C@H](CSSC[C@H](NC1=O)C(=O)N[C@@H](CCCCN)C(=O)N[C@@H](CC(N)=O)C(=O)NCC(=O)N[C@@H](CCCCN)C(=O)N[C@@H](CCCNC(=N)N)C(=O)NCC(=O)N3)NC(=O)[C@H](CCCNC(=N)N)NC(=O)[C@H](CO)NC(=O)[C@H](Cc1cnc[nH]1)NC(=O)[C@H](CC(=O)O)NC(=O)[C@H](CCCNC(=N)N)NC2=O		8.30	6.77		
C[C@@H]1NC(=O)[C@@H]2CSSC[C@@H](C(N)=O)NC(=O)[C@@H]3CSSC[C@H](NC(=O)[C@@H](N)CSSC[C@H](NC(=O)[C@H](Cc4c[nH]c5ccccc45)NC(=O)[C@H](CCCCN)NC(=O)CNC1=O)C(=O)N[C@@H](CCCCN)C(=O)NCC(=O)N[C@@H](Cc1c[nH]cn1)C(=O)N[C@@H](CO)C(=O)N[C@@H](CCCNC(=N)N)C(=O)N3)C(=O)N[C@@H](CC(N)=O)C(=O)N[C@@H](CCCCN)C(=O)N[C@@H](CC(N)=O)C(=O)NCC(=O)NCC(=O)N2				~ 3.5 fold	
CC(C)[C@H](NC(=O)[C@@H]1CCCN1C(=O)[C@@H](N)CCCNC(=N)N)C(=O)N[C@H]1CSSC[C@@H]2NC(=O)[C@H](Cc3c[nH]c4ccccc34)NC(=O)[C@H](CCCNC(=N)N)NC(=O)[C@H](CO)NC(=O)[C@H](CO)NC(=O)[C@@H]3CSSC[C@@H](C(N)=O)NC(=O)[C@H](CSSC[C@H](NC1=O)C(=O)N[C@@H]([C@@H](C)O)C(=O)NCC(=O)N[C@@H](CCCCN)C(=O)NCC(=O)N[C@@H](CCCCN)C(=O)N[C@@H](CCCNC(=N)N)C(=O)NCC(=O)N3)NC(=O)[C@H](CCCNC(=N)N)NC(=O)[C@H](CO)NC(=O)[C@H](Cc1c[nH]cn1)NC(=O)[C@H](CC(=O)O)NC(=O)[C@H](CCCNC(=N)N)NC2=O		6.79	5.83		
CC(C)C[C@@H]1NC(=O)[C@H](CCCNC(=N)N)NC(=O)[C@@H]2CCCN2C(=O)[C@H](CCCNC(=N)N)NC(=O)[C@@H]2CSSC[C@@H]3NC(=O)[C@H](CCCNC(=N)N)NC(=O)[C@H](CO)NC(=O)[C@H](Cc4c[nH]cn4)NC(=O)[C@H](CO)NC(=O)[C@H](CCCCN)NC(=O)[C@H](CSSC[C@H](NC(=O)[C@H](Cc4c[nH]cn4)NC(=O)[C@H](CCC(=O)O)NC(=O)CNC(=O)[C@@H](N)C(C)C)C(=O)N2)NC(=O)[C@H](Cc2c[nH]c4ccccc24)NC(=O)[C@H](CCCNC(=N)N)NC(=O)[C@H](CC(=O)O)NC(=O)[C@H](CSSC[C@@H](C(N)=O)NC3=O)NC(=O)[C@H](CCC(=O)O)NC(=O)[C@H](CCCNC(=N)N)NC(=O)[C@H](CCCCN)NC(=O)CNC(=O)[C@H](CCCNC(=N)N)NC(=O)[C@H](Cc2c[nH]c3ccccc23)NC(=O)[C@H](CC(C)C)NC(=O)[C@@H]2CCCN2C(=O)[C@H](CCCCN)NC(=O)[C@@H]2CCCN2C(=O)[C@H](CCCNC(=N)N)NC1=O		6.92	6.30		potent blockers
